Record: PubChem BioAssay AID624099 (ICCB-Longwood, 2012)

Test: 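Human genes that papillomavirus E2 requires to repress the HPV18 LCR promoter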 (primary screen)
System: human C33A cervical carcinoma cells (HPV-negative) stably expressing BPV1 E2 and an HPV18 LCR luciferase reporter
Reagents: siRNA pool against human genes, 40 nM
Timing: 72 h
Measured: 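Per-well luciferase luminescence, z-scored on each plate against the plate mean and SD with control wells left out, then averaged across three replicate plates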
Direction: mean z-score and z-score: higher = stronger reporter signal, weaker E2 silencing
Call rule: 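Mean z ≥ 2 together with z ≥ 2 in two or more of the three replicates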
In all, the deposit lists about 21,000 reagents; this is a part drawn at random. 497 of all reagents (2.4%) count as active. 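Higher z means weaker E2 silencing; only reporter increases were scored, and knock-downs that hurt cell survival may mask genuine repressor factors.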 The numbers tell different reagents against one gene apart.

target	pool no.	mean z-score	z-score, replicate A	z-score, replicate B	z-score, replicate C	outcome
TNPO2	1		-0.3	-0.53		inactive
USH2A	1	-0.09	-0.17	-0.09	-0.02	inactive
NGFR	1	0.16	0.03	0.33	0.11	inactive
LYPLAL1	1	0.34	0.25	0.5	0.27	inactive
SSU72L2	1	0.36	0.47	0.34	0.27	inactive
UBAP1	1	-0.6	-0.43	-0.55	-0.82	inactive
SCCPDH	1	0.85	0.42	1.05	1.07	inactive
HRG	1	0.8	1.23	0.92	0.24	inactive
HLA-G	1	2.6	2.58	2.58	2.65	active
CRHR1	1	-0.96	-1.09	-0.87	-0.91	inactive
RPL23AP12	1	0.85	1.02	0.73	0.8	inactive
GABBR2	1	-1.42	-1.55	-1.57	-1.14	inactive
LYG1	1	-0.76	-0.87	-0.65		inactive
ZMYND19	1	0.78	0.75	0.87	0.71	inactive
LOC284397 (retired record)	1	0.79	0.81	0.67	0.88	inactive
SOBP	1	-0.12	0.2	0.15	-0.72	inactive
DHFRP3	1	0.18	0.24	0.29	0.01	inactive
ADCY1	1	0.01	0.11	-0.08	0.01	inactive
AP2S1	1	0.77	0.84	0.53	0.93	inactive
LHX1	1	0.37	0.31	0.17	0.63	inactive
SPDYE3	1	-1.43	-1.33	-1.76	-1.2	inactive
DIDO1	1	2.31	1.95	2.51	2.49	active
DIDO1	2	-0.05	-0.01	-0.32	0.19	inactive
FYB2	1	1.16	1.04	1.35	1.09	inactive
LOC392726 (retired record)	1	0.19	0.49	0.12	-0.06	inactive
TRPM3	1	-1.29	-0.97	-1.49	-1.43	inactive
RAB39B	1	0.76	0.75	0.82	0.72	inactive
GPR61	1	-0.34	-0.49	-0.14	-0.38	inactive
CDSN	1	0.63	0.61	0.6	0.68	inactive
RBMS3	1	0.69	0.86	0.64	0.58	inactive
SNHG17	1	0.9	0.96	0.39	1.36	inactive
ITGAM	1	-0.68	-0.76	-0.63	-0.65	inactive

Continued (3 carried over from the part before).
target	pool no.	mean z-score	z-score, replicate A	z-score, replicate B	z-score, replicate C	outcome
RBMS3	1	0.69	0.86	0.64	0.58	inactive
SNHG17	1	0.9	0.96	0.39	1.36	inactive
ITGAM	1	-0.68	-0.76	-0.63	-0.65	inactive
CDADC1	1	-0.34	-0.78	-0.58	0.35	inactive
SHANK1	1	-0.07	-0.04	-0.05	-0.11	inactive
LGALS13	1	-0.15	0.23	-0.13	-0.57	inactive
GOLGA8EP	1	-0.16	-0.13	-0.18	-0.17	inactive
MYOZ3	1	0.64	0.8	0.4	0.72	inactive
ITGAD	1	-0.68	-0.65	-0.65	-0.75	inactive
ARFGEF2	1	0.39	0.52	0.19	0.46	inactive
RFX4	1	-0.09	-0.07	-0.36	0.16	inactive
CIMIP2A	1	-0.99	-1.15	-0.92	-0.91	inactive
RPS3AP49	1	-3.17	-3.04	-3.33	-3.14	inactive
PTBP3	1	0.65	0.89	0.55	0.5	inactive
OIT3	1	0.26	-0.09	0.74	0.12	inactive
FAM227A	1	-0.25	-0.3	-0.26	-0.2	inactive
TRA2B	1	0.84	1.03	0.86	0.63	inactive
KBTBD4	1	0.09	-0.2	-0.13	0.6	inactive
CCDC137	1	-0.32	-0.25	-0.2	-0.5	inactive
PUSL1	1	-0.72	-1.09	-0.7	-0.36	inactive
BLOC1S2	1	0.17	0.36	0.06	0.1	inactive
IL18BP	1	0.44	0.18	0.73	0.4	inactive
SPC25	1	-0.94	-0.98	-1.05	-0.79	inactive
DRG1	1	1.38	1.51	1.35	1.27	inactive
FUNDC1	1	-0.54	-0.59	-0.8	-0.23	inactive
GPR63	1	-2.05	-2.27	-1.9	-1.98	inactive
ADORA2A	1	0.78	0.76	0.75	0.83	inactive
NAT2	1	-0.29	-0.23	-0.62	-0.03	inactive
